Results taken from paper PMC9609273 (Pharmaceuticals, 2022).

Test system: Human Embryonic Kidney cells (HEK 293)

3-((2-Isonicotinoylhydrazono)methyl)phenyl quinoline-8-sulfonate [SIH13]
Cytotoxicity against HEK293 (in words): moderately toxic
